Anti-infective test results gathered from many reports (values: NIAID ChemDB through PubChem).

All rows: tests in culture; species: HIV-1; endpoint: EC50

ECn is the concentration giving n% inhibition of infection, replication or growth. An empty or dashed field is not shown. Rows are shuffled and stem from different studies.

smiles | cells | strain or isolate | changes | method | value
Nc1ncnc2c1ncn2[C@H]1CC[C@@H](CO)O1 | MT-4 | IIIB | - | cytopathic effect | 6.3 µM
CC(C)(S)[C@@H](N)C(=O)O | CEM | IIIB | - | cytopathic effect / MTT | >100 µM
Cc1cn([C@H]2C[C@@H]3[C@@H](COCN3O)O2)c(=O)[nH]c1=O | MT-4 | IIIB | - | trypan blue | 3.8 µg/mL
O=c1ccn([C@H]2CC[C@@H](CO)O2)c(=O)[nH]1 | MT-4 | LAV | - | trypan blue | 48 µM
Cc1cn([C@H]2CC[C@@H](CO)O2)c(=O)[nH]c1=O | MT-4 | IIIB | - | p24 | 5.46 µM
CCOCn1c([Se]c2ccccc2)c(CC)c(=O)[nH]c1=O | PBMC | LAV | - | RT activity | 0.017 µM
Cc1cn([C@H]2C[C@H](N=[N+]=[N-])[C@@H](CO)O2)c(=O)[nH]c1=O | PBMC | G691-2 | - | p24 | >10 µM
O=C(/C=C/c1ccc(O)c(O)c1)O[C@@H]1C[C@](OC(=O)/C=C/c2ccc(O)c(O)c2)(C(=O)O)C[C@@H](O)[C@H]1O | MT-2 | LAI | - | cytopathic effect / neutral red | 25 µM
NC(N)=NCCCC(=O)NCC1OC(OC2C(NC(=O)CCCN=C(N)N)CC(NC(=O)CCCN=C(N)N)C(OC3CC(NC(=O)CCCN=C(N)N)C(O)C(CO)O3)C2O)C(O)C(O)C1O | MT-4 | AMD3100-resistant | - | cytopathic effect / MTT | >203 µM
Nc1nccc2c1ncn2[C@@H]1C[C@H](CO)[C@@H](O)[C@H]1O | PBL | A012 POST-AZT | - | p24 | 0.365 µM
Cc1nnc(C(C)C)n1C1C[C@H]2CC[C@@H](C1)N2CC[C@H](NC(=O)C1CCC(F)(F)CC1)c1ccccc1 | HeLa | - | - | cell fusion / luminescence | 0.001 µM
CC(C)CN(C[C@@H](O)[C@H](Cc1ccccc1)NC(=O)O[C@H]1CCOC1)S(=O)(=O)c1ccc(N)cc1 | PBMC | MM | PR-L10I K43T M46I I54V L63P A71V V82A L90M Q92K | p24 | 0.53 µM
Cc1cn([C@H]2C[C@H](N=[N+]=[N-])[C@@H](CO)O2)c(=O)[nH]c1=O | MT-4 | LAV | - | trypan blue | 0.006 µM
c1cc(CN2CCCNCCNCCCNCC2)ccc1CN1CCCNCCNCCCNCC1 | PBMC | NL4-3 X4 laboratory isolate | - | p24 | 0.022 µM
CC(C)Nc1cccnc1N1CCN(C(=O)c2cc3cc(N=CN(C)C)ccc3[nH]2)CC1 | PBMC | Seropositive clinical isolate D | - | MTT | <1 µM
Fc1cccc(F)c1Cn1c(-c2c(F)cccc2F)nc2c(Br)cccc21 | MT-4 | - | RT-K103N | cytopathic effect / MTT | 10.2 µM
COc1ccc(C[C@H](NC(=O)O[C@H]2CCO[C@H]3OCC[C@H]32)[C@H](O)CN(C[C@H]2CCC(=O)N2)S(=O)(=O)c2ccc(OC)cc2)cc1 | MT-2 | LAI | - | - | <1 µM
Cc1cn([C@H]2C[C@H](N=[N+]=[N-])[C@@H](CO)O2)c(=O)[nH]c1=O | TZM-bl | UG070 | - | luciferase | 0.027 µM
CCOP(=O)(N[C@@H](C)C(=O)OC)OC[C@H]1O[C@@H](n2cc(C)c(=O)[nH]c2=O)C[C@@H]1N=[N+]=[N-] | MT-4 | IIIB | - | cytopathic effect / MTT | 0.93 µg/mL
O=c1[nH]cnc2c1ncn2[C@H]1CC[C@@H](CO)O1 | MT-4 | IIIB | - | trypan blue | 1.2 µg/mL
Nc1ccn([C@H]2C=C[C@@H](CO)O2)c(=O)n1 | MT-4 | LAV | - | trypan blue | 0.13 µM
NC(N)=NCCC[C@H](N)C(=O)NC[C@H]1O[C@H](O[C@H]2C(O)[C@@H](O[C@H]3O[C@H](CO)[C@@H](O)[C@H](NC(=O)[C@@H](N)CCCN=C(N)N)[C@H]3O)[C@H](NC(=O)[C@@H](N)CCCN=C(N)N)C[C@@H]2NC(=O)[C@@H](N)CCCN=C(N)N)[C@H](O)[C@@H](O)[C@@H]1O | MT-4 | AMD3100-resistant | - | cytopathic effect / MTT | >113 µM
Nc1nc2c(ncn2[C@H]2C=C[C@@H](CO)O2)c(=O)[nH]1 | MT-4 | LAV | - | trypan blue | >5 µM
CC(=O)N[C@@H](CS)C(=O)O | CEM | IIIB | - | cytopathic effect / MTT | >100 µM
C[C@@H]1O[C@@H]2OCCC[C@@H]2[C@@H]1OC(=O)N[C@@H](Cc1ccccc1)[C@H](O)CN1C[C@H]2CCCC[C@H]2C[C@H]1C(=O)NC(C)(C)C | PBMC | MM | PR-L10I K43T M46I I54V L63P A71V V82A L90M Q92K | p24 | >1 µM
O[C@H]1[C@H](O)[C@@H](O)CN2CC[C@H](O)[C@H]12 | JM | GBB | - | p24 | 1 µg/mL
COc1ccnc2[nH]cc(C(=O)C(=O)N3CCN(C(=O)c4ccccc4)C[C@H]3C)c12 | HeLa | - | - | cell fusion / luminescence | 0.0352 µM
CC(C)(C)OC(=O)[C@@H]1CCCN1C[C@H](O)[C@H](Cc1ccccc1)NC(=O)[C@H](CC(N)=O)NC(=O)OCc1ccccc1 | JM | GBB | - | p24 | 10 µg/mL
CC(C)=CCN1c2cc(Cl)cc3[nH]c(=S)n(c23)C[C@@H]1C | MT-4 | - | RT-L74V A98G | - | <0.8 µM
Cc1cn([C@H]2C=C[C@@H](CO)O2)c(=O)[nH]c1=O | CEM | - | - | - | 0.24 µM
Nc1nc2c(ncn2[C@H]2C=C[C@@H](OCCO)C2)c(=O)[nH]1 | - | - | - | - | 14 µg/mL
O=C(O)C1=CC(=C(c2ccc(O)c(C(=O)O)c2)c2ccc(O)c(C(=O)O)c2)C=CC1=O | MT-4 | IIIB | - | cytopathic effect / MTT | 0.82 µg/mL
C[C@H]1O[C@@H]2OCCC[C@@H]2[C@@H]1OC(=O)N[C@@H](Cc1ccccc1)[C@H](O)CN1C[C@H]2CCCC[C@H]2C[C@H]1C(=O)NC(C)(C)C | PBMC | PR-L63P ERS104pre | - | p24 | 0.033 µM
COc1ccc(Cc2nccc3cc(OC)c(OC)cc23)cc1OC | MOLT-4 | NDK | - | cytopathic effect | <1 µg/mL
Cc1cn([C@H]2C[C@H](N=[N+]=[N-])[C@@H](CO)O2)c(=O)[nH]c1=O | MT-4 | AMR100 | - | cytopathic effect / trypan blue | 0.19 µM
Nc1ccn([C@@H]2O[C@H](CO)C[C@@H]2F)c(=O)n1 | MT-4 | IIIB | - | cytopathic effect / MTT | 0.53 µg/mL
CCOCn1c([Se]c2ccccc2)c(C)c(=O)[nH]c1=O | PBMC | LAV | - | RT activity | 0.64 µM
Nc1ccn([C@H]2CC[C@@H](CO)O2)c(=O)n1 | JM | GBB | - | p24 | <0.08 µg/mL
Nc1ncnc2c1ncn2[C@H]1CC[C@@H](CO)O1 | MT-4 | LAV | - | trypan blue | 6.4 µM

A second listing of 5 rows from above:

{"smiles": "O[C@H]1[C@H](O)[C@@H](O)CN2CC[C@H](O)[C@H]12", "cells": "JM", "strain or isolate": "GBB", "method": "p24", "value": "1 µg/mL"}
{"smiles": "Nc1ccn([C@@H]2O[C@H](CO)C[C@@H]2F)c(=O)n1", "cells": "MT-4", "strain or isolate": "IIIB", "method": "cytopathic effect / MTT", "value": "0.53 µg/mL"}
{"smiles": "Cc1nnc(C(C)C)n1C1C[C@H]2CC[C@@H](C1)N2CC[C@H](NC(=O)C1CCC(F)(F)CC1)c1ccccc1", "cells": "HeLa", "method": "cell fusion / luminescence", "value": "0.001 µM"}
{"smiles": "COc1ccc(Cc2nccc3cc(OC)c(OC)cc23)cc1OC", "cells": "MOLT-4", "strain or isolate": "NDK", "method": "cytopathic effect", "value": "<1 µg/mL"}
{"smiles": "CCOP(=O)(N[C@@H](C)C(=O)OC)OC[C@H]1O[C@@H](n2cc(C)c(=O)[nH]c2=O)C[C@@H]1N=[N+]=[N-]", "cells": "MT-4", "strain or isolate": "IIIB", "method": "cytopathic effect / MTT", "value": "0.93 µg/mL"}